Experimental data: ChEMBL document CHEMBL1151749, “Discovery of quinazolines as histamine H4 receptor inverse agonists using a scaffold hopping approach” (J Med Chem, 2008)

The chains behind the UniProt entries cited, without tags or fusion partners. Where a name states a change or a piece, a line headed by the entry shows the natural chain unless it says otherwise.
UniProt Q9H3N8: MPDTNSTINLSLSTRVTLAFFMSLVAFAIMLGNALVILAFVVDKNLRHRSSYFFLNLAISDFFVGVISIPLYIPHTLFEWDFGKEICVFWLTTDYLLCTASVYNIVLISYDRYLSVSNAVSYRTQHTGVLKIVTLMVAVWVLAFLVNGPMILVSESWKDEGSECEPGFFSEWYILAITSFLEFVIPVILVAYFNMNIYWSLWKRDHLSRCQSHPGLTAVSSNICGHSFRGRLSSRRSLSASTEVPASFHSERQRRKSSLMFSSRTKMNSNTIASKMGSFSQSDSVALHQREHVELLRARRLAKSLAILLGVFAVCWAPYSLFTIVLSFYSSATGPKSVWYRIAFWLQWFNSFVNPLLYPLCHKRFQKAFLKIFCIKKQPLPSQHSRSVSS

Target: Histamine H4 receptor (Homo sapiens, UniProt Q9H3N8)
Test: Inverse agonist activity at human histamine H4 receptor expressed in HEK293T cells by CRE-beta-galactosidase assay
Type: functional, cell-based, HEK-293T

IC50: 69.2 nM
SMILES: CN1CCN(c2nc(NCc3cccs3)c3cc(Cl)ccc3n2)CC1
